# Measurements as given in patent publication US20240336672A1.
# Experiments:
# Experiment in all cases: flow cytometry (Mock 2.5)
# α (SARS-CoV-2) = target: α (SARS-CoV-2)
# β (SARS-CoV-2) = target: β (SARS-CoV-2)
# ι (SARS-CoV-2) = target: ι (SARS-CoV-2)
# [1] = target: SARS-CoV-2 δ variant spike protein, cell-expressed (SARS-CoV-2)
# ε (SARS-CoV-2) = target: ε (SARS-CoV-2)
# κ (SARS-CoV-2) = target: κ (SARS-CoV-2)
substance,measurement,setting,value
Sotrovimab (antibody),log10 ΔgMFI,α (SARS-CoV-2),4.1
same,log10 ΔgMFI,β (SARS-CoV-2),3.7
same,log10 ΔgMFI,ι (SARS-CoV-2),4.7
same,log10 ΔgMFI,[1],4.3
same,log10 ΔgMFI,ε (SARS-CoV-2),4.2
same,log10 ΔgMFI,κ (SARS-CoV-2),4.5
